Pooled drug test results. Numbers come from NIAID ChemDB, via PubChem.

Common to all: growth or infection tests; organism: HIV-1

Lines come from different laboratories, so protocols vary. ECn: concentration that inhibits the pathogen or its effect by n%. Blank or dashed fields: not listed here. a–b is a range or a potency band.

SMILES,endpoint,cells,method,mutations,strain,result
Cc1ccc(C(C)S(=O)(=O)c2c(C)ccc[n+]2[O-])c(C)c1,EC50,CEM,syncytia,,HE,17 µg/mL
Cc1cc(C)cc(C(=O)c2cc(Cl)ccc2OCC(=O)Nc2ccc(S(N)(=O)=O)cc2C)c1,EC50,HeLa + HELA CD4+,β-galactosidase,RT-V106A Y181C,HXB2,<0.01 µM
COC(=O)c1cccc2c(C(=O)C(=O)N3CCN(C(=O)c4ccccc4)CC3CC(C)C)c[nH]c12,EC50,HeLa + HELA CD4+/CCR5,luciferase,,,<10 µM
O=C(NC1CCCC1)c1ccc(C2=NN3C(C(=O)c4ccc(F)cc4)Oc4ccccc4C3C2)cc1,EC50,MT-4,GFP / reporter gene,,LAI,<1 µM
COc1cc(-c2ccc(N=Nc3ccc4c(S(=O)(=O)O)cc(S(=O)(=O)O)c(N)c4c3O)c(OC)c2)ccc1N=Nc1ccc2c(S(=O)(=O)O)cc(S(=O)(=O)O)c(N)c2c1O,EC50,CEM + CEM-SS,RT activity,,C,0.4 µM
Cc1cc(/C=C/C#N)cc(C)c1Oc1nc(NC2CCN(Cc3ccccc3F)CC2)nc2ccsc12,EC50,MT-4,MTT,NNRTI-resistant (RT F227L V106A),IIIB,0.0406 µM
CN(CCN1CCCC1)C(=O)c1ccc(C2=NN3C(C(=O)c4ccc(F)cc4)Oc4ccccc4C3C2)cc1,EC50,MT-4,GFP / reporter gene,,LAI,1–10 µM
COc1cccc2c(C(=O)C(=O)N3CCN(C(=O)c4ccccc4)C[C@@H]3C)c[nH]c12,EC50,HeLa + HELA CD4+/CCR5,luciferase,,,<10 µM
CCOC(=O)c1ccc(CN2CCC(Nc3nc(Oc4c(C)cc(C#N)cc4C)c4ccsc4n3)CC2)cc1,EC50,MT-4,MTT,,RES056,40.9 µM
Cc1ccc(C)c(C(C)S(=O)(=O)c2c(C)ccc[n+]2[O-])c1,EC50,C8166,syncytia,,IIIB,0.1 µg/mL
CCCCN(CCCC)CCCn1c(=O)c(O)c2n(c1=O)CCN(Cc1ccc(F)cc1)C2=O,EC95,MT-4,p24,,,<10 µM
O=C(NCc1cccs1)c1ccc(C2=NN3C(C(=O)c4ccc(F)cc4)Oc4ccccc4C3C2)cc1,EC50,MT-4,GFP / reporter gene,,LAI,>10 µM
Cc1ccc(C(=O)N2CCN(C(=O)C(=O)c3c[nH]c4ccccc34)CC2)cc1F,EC50,MT-2,RT activity,,BRU,>10 µM
Cc1cc2cn[nH]c2cc1NC(=O)COc1ccc(Cl)cc1C(=O)c1cccc(C#N)c1,EC50,HeLa + HELA CD4+,β-galactosidase,RT-K103N Y181C,HXB2 (RT-K103N Y181C) Recombinant,<0.01 µM
CC(C)[C@H](C)CC[C@](C)(O)[C@H]1C(=O)C[C@H]2[C@@H]3C(=O)C=C4C[C@@H](O)CC[C@]4(C)[C@H]3CC[C@@]21C,EC50,MT-4,MTT,,NL4-3,0.0876 µM
O=C1Nc2ccc(Cl)cc2C(OCCc2ccccc2)(C(F)(F)F)O1,EC50,,,,,<0.1668 µM
CNc1ncnc2c1ncn2[C@@H]1O[C@H](CO)C[C@@H]1F,EC50,MT-2,RT activity,RT-K65R,IIIB BCH-13520-resistant (RT K65R),1.8 µM
C=C(CC[C@](C)(O)[C@H]1C(=O)C[C@H]2[C@@H]3C(=O)C[C@H]4C[C@H](O)CC[C@]4(C)[C@H]3CC[C@@]21C)C(C)C,EC50,MT-4,MTT,,NL4-3,3.02 µM
Clc1cc(/C=C/c2ccc(-c3cncnc3)cc2)nc2ccccc12,EC50,TZM-bl,luminescence,,UG070,89.3 µM
Cc1cc(C#N)cc(C(=O)c2cc(Cl)ccc2OCC(=O)Nc2ccc(S(N)(=O)=O)nc2C)c1,EC50,HeLa + HELA CD4+,β-galactosidase,RT-K103N P225H,HXB2,<0.01 µM
Cc1cc(C#N)cc(C(=O)c2ccccc2OCC(=O)Nc2ccc(S(N)(=O)=O)cc2C)c1,EC50,HeLa MAGI + HeLa,β-galactosidase,RT-L100I K103N,,<0.005 µM
O=C(C(=O)N1CCN(C(=O)c2cc(Br)ccc2S)CC1)c1c[nH]c2cccc(F)c12,EC50,HeLa + HELA CD4+/CCR5,luciferase,,,<10 µM
COc1ccc(/C=C/c2cc(Cl)c3cc(Cl)ccc3n2)c(OC)c1,EC50,TZM-bl,luminescence,,UG070,1.11 µM
Nc1nc(=O)n([C@H]2C=C[C@@H](CO)O2)cc1F,EC90,MT-4,p24,,NL-XM WT,1.4 µM
Clc1ccc2nc(/C=C/c3cccc4ccccc34)cc(Cl)c2c1,EC50,TZM-bl,luminescence,,UG070,58.53 µM
Cc1ccc(C)c(CSc2c(Cl)ccc[n+]2[O-])c1,EC50,C8166,syncytia,,IIIB,0.04 µg/mL
C[C@H](Cn1cnc2c(N)ncnc21)OCP(=O)(O)O,EC50,MT-2,recombinant virus assay,M41L/D67N/K70R/A98G/K101E/M184V/G190A/L210W/T215Y/K219E,Clinical isolate,>0.412 µM
CCNC(=O)c1ccc(C2=NN3C(C(=O)c4ccc(F)cc4)Oc4ccccc4C3C2)cc1,EC50,MT-4,GFP / reporter gene,,LAI,>10 µM
Nc1nc(NC2CC2)c2ncn([C@H]3C=C[C@@H](CO)C3)c2n1,EC50,MT-2,recombinant virus assay,A62V/V75I/F77L/F116L/Q151M/M184V,Clinical isolate,1.496 µM
COc1ccc(Br)c2[nH]cc(C(=O)C(=O)N3CCN(C(=O)c4ccccn4)C[C@H]3C)c12,EC50,HeLa + HELA CD4+/CCR5,luciferase,,,<10 µM
CC(C)CCC[C@@H](C)[C@H]1CCC2C3CCC4C[C@@H](O[C@@H]5O[C@H](COS(=O)(=O)[O-])[C@@H](O[C@H]6O[C@H](COS(=O)(=O)[O-])[C@@H](O[C@H]7O[C@H](COS(=O)(=O)[O-])[C@@H](O[C@H]8O[C@H](COS(=O)(=O)[O-])[C@@H](OS(=O)(=O)[O-])[C@H](OS(=O)(=O)[O-])[C@H]8OS(=O)(=O)[O-])[C@H](OS(=O)(=O)[O-])[C@H]7OS(=O)(=O)[O-])[C@H](OS(=O)(=O)[O-])[C@H]6OS(=O)(=O)[O-])[C@H](OS(=O)(=O)[O-])[C@H]5OS(=O)(=O)[O-])CC[C@]4(C)C3CC[C@@]21C,EC50,H9,p24 / ELISA / antigen,,IIIB,14 µg/mL
C/C=C/COC1(C(F)(F)F)OC(=O)Nc2ccc(Cl)cc21,EC50,,,,,<0.0056 µM
COc1ccc(/C=C/c2cc(Cl)c3ccccc3n2)c(OC)c1,EC50,TZM-bl,luminescence,,VB59,6.89 µM
Cc1cn([C@H]2C=C[C@@H](CO)O2)c(=O)[nH]c1=O,EC50,MT-4,p24,RT-M41L D67N K70R T215Y K219Q,XM-AZT-resistant,<0.7 µM
C=C(C)[C@@H]1CC[C@]2(C(=O)NCCC(C)(C)C)CC[C@]3(C)[C@H](CC[C@@H]4[C@@]5(C)CC[C@H](OC(=O)CC(C)(C)C(=O)O)C(C)(C)[C@@H]5CC[C@]43C)[C@@H]12,EC50,,absorbance,V370A,NL4-3,0.125 µM
CC(C)(CN1CCOCC1)Cn1c(=O)c(O)c2n(c1=O)CCN(Cc1ccc(F)cc1)C2=O,EC95,MT-4,p24,,,<10 µM
Cc1nc2ccccc2c(-c2cc(F)c3c(c2C)CCCO3)c1[C@H](OC(C)(C)C)C(=O)O,EC50,MT-4,luminescence,G140S/Q148H/N155H,NL4-3,0.025 µM
Cc1cc2[nH]cnc2cc1NC(=O)COc1ccc(Cl)cc1C(=O)c1cc(F)cc(C(F)(F)F)c1,EC50,HeLa + HELA CD4+,β-galactosidase,RT-K103N V108I,HXB2,<0.01 µM
CN(C)C1=C(C#N)/C(=C2/C(C#N)=C(N(C)C)N(c3ccc([N+](=O)[O-])cc3)c3c2n(C)c2ccccc32)c2c(c3ccccc3n2C)N1c1ccc([N+](=O)[O-])cc1,EC50,CEM + CEM-SS,cytopathic effect / XTT,RT-P236L,HEPT-resistant (RT P236L),0.97 µM
Cc1cc(C#N)cc(C(=O)c2cc(Cl)ccc2OCC(=O)Nc2cnc(S(N)(=O)=O)cc2C)c1,EC50,HeLa + HELA CD4+,β-galactosidase,RT-G190A,HXB2,<0.01 µM
O=[N+]([O-])c1ccc[n+]([O-])c1SCc1ccccc1,EC50,CEM,syncytia,,RF,8.4 µg/mL
Cc1cc(S(N)(=O)=O)ccc1NC(=O)COc1ccc(Cl)cc1C(=O)c1cccc(C#N)n1,EC50,HeLa + HELA CD4+,β-galactosidase,RT-K103N,HXB2,<0.01 µM
Cc1cccc(C)c1OCC(=O)N[C@@H](Cc1ccccc1)[C@H](O)CN(CC(C)C)S(=O)(=O)c1ccc2ncn(C)c2c1,EC50,MT-4,cytopathic effect / MTT,,LAI WT,0.063 µM
O=C1Nc2ccc(F)c(F)c2C(C#Cc2ccsc2)(C(F)(F)F)O1,EC50,,,,,<0.00234 µM
CCC1CN(C(=O)c2ccccc2)CCN1C(=O)C(=O)c1c[nH]c2c(C(=O)OC)cccc12,EC50,HeLa + HELA CD4+/CCR5,luciferase,,,<10 µM
COC(=O)Nc1nc2ccc(S(=O)(=O)N(CC(C)C)C[C@@H](O)[C@H](Cc3ccccc3)NC(=O)COc3c(C)cc(N(C)C)cc3C)cc2[nH]1,EC50,MT-4,cytopathic effect / MTT,,LAI WT,0.032 µM
C=C(C)[C@@H]1CC[C@]2(C(=O)NCCCCCCCC(=O)N[C@@H](CC(C)C)[C@@H](O)CC(=O)O)CC[C@]3(C)[C@H](CC[C@@H]4[C@@]5(C)CC[C@H](O)C(C)(C)[C@@H]5CC[C@]43C)[C@@H]12,EC50,CEM + CEM-4,cytopathic effect / MTT,,ELI,>5 µM
CC(C)CN(C[C@@H](O)[C@H](Cc1ccccc1)NC(=O)OCc1cncs1)S(=O)(=O)c1ccc2ncn(C)c2c1,EC50,MT-4,cytopathic effect / MTT,,LAI WT,0.1 µM
C[C@H]1[C@H](O)[C@@H](C)/C=C/C=C/C=C/C=C/C=C/C=C/C=C/[C@H](O[C@@H]2O[C@H](C)[C@@H](O)[C@H](N)[C@@H]2O)C[C@@H]2O[C@](O)(C[C@@H](O)C[C@@H](O)CC[C@H](O)[C@@H](O)C[C@@H](O)CC(=O)O[C@H]1C)C[C@H](O)[C@H]2C(=O)O,EC50,PBMC,p24 / RT activity,,CMU08 CLADE E X4 (SI),0.9 µM
O=C(NCC1CCCCC1)c1ccc(C2=NN3C(C(=O)c4ccc(F)cc4)Oc4ccccc4C3C2)cc1,EC50,MT-4,GFP / reporter gene,,LAI,>10 µM
Cc1cc(C#N)cc(C)c1Oc1nc(NC2CCC(NCc3ccc(S(C)(=O)=O)cc3)CC2)nc2ccsc12,EC50,MT-4,MTT,,RES056,>75.2 µM
O=C1Nc2ccc(Cl)cc2C(C#Cc2ccsc2)(C(F)(F)F)O1,EC90,,,RT-K103N,,0.3219 µM
Cc1cc(C#N)cc(C)c1Oc1nc(NC2CCC(NCc3cccc(C(F)(F)F)c3)CC2)nc2ccsc12,EC50,MT-4,MTT,NNRTI-resistant (RT Y181C),IIIB,>707 µM
Cc1cc(Cl)cc(C(=O)c2cc(Cl)ccc2OCC(=O)Nc2ccc(S(N)(=O)=O)cc2C)c1,EC50,HeLa + HELA CD4+,β-galactosidase,RT-K103N,HXB2,0.101–1 µM
Nc1nc(NC2CC2)c2ncn([C@H]3CO[C@@H](CO)O3)c2n1,EC50,PBMC,RT activity,,IIIB Laboratory strain,0.22 µM
CC(C)CN(C[C@@H](O)[C@H](Cc1ccccc1)NC(=O)O[C@H]1CO[C@H]2OCC[C@H]21)S(=O)(=O)c1ccc2ncn(Cc3cncn3C)c2c1,EC50,MT-4,cytopathic effect / MTT,,LAI WT,0.631 µM
COc1ccc(C)cc1CS(=O)(=O)c1cccc[n+]1[O-],EC50,C8166,syncytia,,IIIB,5.7 µg/mL
Cc1cc(S(N)(=O)=O)ccc1NC(=O)COc1ccc(Cl)cc1C(=O)c1cccc(C#N)c1,EC50,HeLa + HELA CD4+,β-galactosidase,RT-V108I Y181C,HXB2,<0.01 µM
Cc1ccc(C(=O)N2CCN(C(=O)C(=O)c3c[nH]c4cccc(F)c34)CC2)cn1,EC50,HeLa + HELA CD4+/CCR5,luciferase,,,<10 µM
Cc1cc(C#N)cc(C)c1Oc1nc(NC2CCC(NCc3ccc([N+](=O)[O-])cc3)CC2)nc2ccsc12,EC50,MT-4,MTT,NNRTI-resistant (RT E138K),IIIB,0.158 µM
O=C1Nc2ccc(Cl)cc2C(C#Cc2ccoc2)(C(F)(F)F)O1,EC50,,,,,<0.0038 µM
O=C1c2c(O)c(=O)n([C@@H]3CCCC[C@@H]3O)c(=O)n2CCN1Cc1ccc(F)cc1,EC95,MT-4,p24,,,<10 µM
CCC(=O)c1ccc(F)c([C@@H]2C[C@@H]2NC(=O)Nc2ccc(C#N)cn2)c1O,EC50,TZM-bl,β-galactosidase / luminescence,NNRTI-resistant (RT K103N/G190A),LAI,0.00107 µM
Cc1ccc(C)c(CS(=O)(=O)c2ccccn2)c1,EC50,CEM,syncytia,RT-Y181C,IIIB,>20 µg/mL
CC1(C)CC=C(c2cn(-c3nccc(C(=O)NC4CCC(N5CC6CCC(C5)O6)CC4)n3)c3ccc(F)c([C@H](OC(C)(C)C)C(=O)O)c23)CC1,EC50,MT-4,luminescence,G140S/Q148R,NL4-3,0.0039 µM
Cc1cc(C#N)cc(C(=O)c2cc(Cl)ccc2OCC(=O)Nc2ccc(S(N)(=O)=O)cc2C)c1,EC50,HeLa + HELA CD4+,β-galactosidase,RT-L100I,HXB2,<0.01 µM
O=C1c2c(O)c(=O)n(CCc3cccs3)c(=O)n2CCN1Cc1ccc(F)cc1,EC95,MT-4,p24,,,<10 µM
CCN(CC)CCNC(=O)c1ccc(C2=NN3C(C(=O)c4ccc(F)cc4)Oc4ccccc4C3C2)cc1,EC50,MT-4,GFP / reporter gene,,LAI,1–10 µM
Cc1ccc(C)c(C(C)S(=O)(=O)c2ccc(C)c[n+]2[O-])c1,EC50,CEM,syncytia,,IIIB,9.6 µg/mL
CCOC(=O)c1ccc(CN2CCC(Nc3nc(Oc4c(C)cc(/C=C/C#N)cc4C)c4sccc4n3)CC2)cc1,EC50,MT-4,MTT,NNRTI-resistant (RT Y188L),IIIB,0.163 µM
C[C@H](Cn1cnc2c(N)ncnc21)OCP(=O)(O)O,EC50,TZM-bl,,NL/348,,4 µM
C/C=C/CSc1cc(NC(=S)c2ccsc2C)ccc1Cl,EC50,CEM + CEM-SS,p24,,NL4-3,0.08 µM
CN(C(=O)c1ccc(C2=NN3C(C(=O)c4ccc(F)cc4)Oc4ccccc4C3C2)cc1)C1CCCCC1,EC50,MT-4,GFP / reporter gene,,LAI,<1 µM
CC(C)[C@H](NC(=O)OCc1ccccn1)C(=O)N[C@@H](Cc1ccccc1)[C@@H](O)C[C@H](Cc1ccccc1)NC(=O)OCc1cccnc1,EC95,MT-4,p24,PR-M46I,NL4-3,0.8 µM